Measured values from several laboratories, pooled; numbers as filed in NIAID ChemDB.

Common to all: toxicity to cultured cells; measure: CC50

CCn is the concentration with n% toxicity to the cells.

compound | cells | read by | conditions | result
O=c1ccc2nc3ccccc3sc-2c1 | VERO | - | - | 8.18 µg/mL
COc1cc([C@@H]2c3cc4c(cc3[C@H](OC(C)=O)[C@@H]3COC(=O)[C@H]23)OCO4)cc(OC)c1O | HT-29 | - | - | 0.23 µM
Nc1nc2c(ncn2CCC(CO)CO)c(=O)[nH]1 | CD4+ T lymphocytes | - | - | >250 µg/mL
Nc1ncnc2c1ncn2C[C@H]1COP(=O)(O)CO1 | HSB-2 | MTT | - | 242 µM
Nc1ncnc2c1ncn2[C@@H]1O[C@H](CO)C[C@@H]1O | TR-14 | - | - | >50 µg/mL
Cn1cc(NC(=O)c2cc(NC(=O)CCCCCC(=O)Nc3cc(C(=O)Nc4cc(C(=O)NCCC(N)=[NH2+])n(C)c4)n(C)c3)cn2C)cc1C(=O)NCCC(N)=[NH2+] | VERO | - | - | 500 µg/mL
CC1C(=O)N(O)c2ncc(Br)cc2C1O | HepDES19 | MTS | 3 d | 69.3 µM
COc1cc([C@@H]2c3cc4c(cc3[C@H](OC(C)=O)[C@@H]3COC(=O)[C@@H]23)OCO4)cc2nccnc12 | MEL-28 | - | - | 0.56 µM
Nc1nc(N)c2ncn(CCOCP(=O)(O)O)c2n1 | CBMC | MTT | - | 34 µM
O=C1c2c(O)cc(O)cc2O[C@H](c2ccc(O)cc2)[C@H]1c1c(O)cc(O)c2c(=O)cc(-c3ccc(O)c(O)c3)oc12 | P-388 | sulforhodamine / absorbance | - | 31.87 µM
OC[C@@H]1C[C@@H](O)[C@H](n2cnc3c(NC4CCCCCC4)ccnc32)O1 | MDBK | - | - | 293 µM
NC(=S)NNC(=O)c1ccc([N+](=O)[O-])cc1 | VERO | - | - | 56 µg/mL
C=C1O[C@@](CO)(n2cnc3c(N)ncnc32)[C@H](O)[C@@H]1O | HeLa | - | - | >100 µg/mL
Nc1nc2c(ncn2COC(CO)CO)c(=O)[nH]1 | CD4+ T lymphocytes | - | - | 61 µg/mL
CC(C)=CCC[C@@H](C)[C@@H]1CC[C@]2(C)C3=C(CC[C@@]12C)[C@@]1(C)CC[C@H](O)C(C)(C)[C@@H]1CC3 | P-388 | sulforhodamine / absorbance | - | 41.75 µM
Nc1nc(N)c2ncn(C[C@@H](CO)OCP(=O)(O)O)c2n1 | HSB-2 | MTT | - | 60 µM
CC(=O)OC1CC2Cc3ccccc3C3(O)COC213 | VERO | - | - | 4.46 µg/mL
Nc1ccn(C[C@H]2COP(=O)(O)CO2)c(=O)n1 | CBMC | MTT | - | 152 µM
CO[C@H]1/C=C/O[C@@]2(C)Oc3c(C)c(O)c4c(O)c(c(/C=N/N5CCN(C)CC5)c(O)c4c3C2=O)NC(=O)/C(C)=C\C=C\[C@H](C)[C@H](O)[C@@H](C)[C@@H](O)[C@@H](C)[C@H](OC(C)=O)[C@@H]1C | Huh7 cells | MTT | - | >50 µg/mL
Nc1ccnc2c1ncn2[C@@H]1O[C@H](CO)C[C@H]1O | Sheep chondrocytes G81092 | MTT | - | >400 µM
COc1cc([C@@H]2c3cc4c(cc3[C@H](OC(C)=O)[C@@H]3COC(=O)[C@@H]23)OCO4)cc2nc3cc(C)c(C)cc3nc12 | P-388 | - | - | 4.8 µM
CCCCC/C=C\C/C=C\CCCCCCCC(=O)O | HeLa | - | - | 100–200 µg/mL
Cc1cc(=O)n(CCOCP(=O)(O)O)c(N)n1 | HeLa S3 | - | - | <10 µM
NC1=NC2C(C=CN2CC(CO)CCO)C(=O)N1 | CD4+ T lymphocytes | - | - | 230 µg/mL
COc1ccc(-c2cc(=O)c3c(OC)cc(OC)c([C@H]4C(=O)c5c(OC)cc(OC)cc5O[C@@H]4c4ccc(OC)cc4)c3o2)cc1 | MA-104 | visual reading | - | ~30 µg/mL
CO[C@H]1/C=C/O[C@@]2(C)Oc3c(C)c(O)c4c(O)c(c5c(c4c3C2=O)NC2(CCN(C)CC2)N=5)=NC(=O)/C(C)=C\C=C\[C@H](C)[C@H](O)[C@@H](C)[C@@H](O)[C@@H](C)[C@H](OC(C)=O)[C@@H]1C | VERO | - | - | 14.88 µg/mL
CCC(C)OC(=O)NC1N=C(c2ccccc2)c2ccccc2NC1=O | HEP-2 | - | - | 9.88 µM
COC1=CC([C@@H]2c3cc4c(cc3[C@H](OC(C)=O)[C@@H]3COC(=O)[C@H]32)OCO4)=CC(=O)C1=O | HT-29 | - | - | 0.59 µM
O=C1c2cscc2C(=O)c2cscc21 | VERO | - | - | >10 µg/mL
OC[C@H]1O[C@@H](n2cnc3c(NC4CCCCCC4)ncnc32)C[C@@H]1O | Sheep chondrocytes G81092 | MTT | - | 108 µM
CCCCOc1ccc(Nc2cn(C3C=CC(O)C3)c(=O)n(C3C=CC(O)C3)c2=O)cc1 | Huh7 cells | MTT | - | >50 µg/mL
O=C1C[C@@H](c2ccc(O)cc2)Oc2cc(O)c(-c3c(O)cc4c(c3O)C(=O)C[C@@H](c3ccc(O)cc3)O4)c(O)c21 | MDCK | visual reading | - | 4.9 µg/mL
O=C1C=C(NCCc2ccccc2)c2ccccc2C1=O | VERO | - | - | 4.63 µg/mL
OC[C@H]1O[C@@H](n2cnc3c(NC4CCCC4)nc(Cl)cc32)[C@H](O)[C@@H]1O | Sheep chondrocytes G81092 | - | - | 205 µM
CN(C)c1cc(OCCOCP(=O)(O)O)nc(N)n1 | CCRF-CEM | - | - | <10 µM
Cn1ncc2c(N(N)CCO)nc(-c3ccc([N+](=O)[O-])o3)nc21 | VERO | - | - | 4.87 µg/mL
O=C(O)P(=O)(O)O | U138-MG | - | - | >400 µg/mL
COC(=O)[C@@H]1[C@H](c2cc(OC)c3nc4cc(Cl)c(Cl)cc4nc3c2)c2cc3c(cc2C2=NOC[C@@H]21)OCO3 | P-388 | - | - | >18 µM
CN1CCN(CCCN2c3ccccc3Sc3ccc(C(F)(F)F)cc32)CC1 | VERO | - | - | 13.6 µg/mL
Nc1cc(Cl)nc2c1ncn2[C@H]1C[C@H](O)[C@@H](CO)O1 | Sheep chondrocytes G81092 | MTT | - | >400 µM
CC(=O)C1=C(C(=O)O)[NH+]([O-])C2C=CC=CC2[NH+]1[O-] | VERO | - | - | 35.98 µg/mL
Nc1nc(OCCOCP(=O)(O)O)cc(=O)n1CCOCP(=O)(O)O | HeLa S3 | - | - | <10 µM
CCCCCCCCCCCCCCCCCCNC(=S)/N=C/C(C(=O)Nc1ccccc1C)=C(\C)O | VERO | - | - | 2.29 µg/mL
Nc1cc(=O)n(CCOCP(=O)(O)O)cn1 | HeLa S3 | - | - | <10 µM
CO[C@H]1[C@@H](O)[C@H](N)[C@@H](O[C@H]2O[C@H](C(C)N)CC[C@H]2N)[C@H](O)[C@@H]1N(C)C(=O)CN | HeLa | - | - | >200 µg/mL
Cc1sc(N=C(Nc2ccccc2)Nc2ccccc2)nc1-c1ccccc1 | VERO | - | - | 6.67 µg/mL
COc1cc([C@@H]2c3cc4c(cc3[C@H](OC(C)=O)[C@@H]3COC(=O)[C@@H]23)OCO4)cc(OC(C)=O)c1OC(C)=O | A549 | - | - | 2.2 µM
O=C(N/N=C/C(F)(F)F)c1ccncc1 | VERO | - | - | 6.4 µg/mL
CCCCOc1ccc(Nc2c[nH]c(=O)[nH]c2=O)cc1 | Huh7 cells | MTT | - | >50 µg/mL
C[C@H](Cn1cnc2c(N)ncnc21)OCP(=O)(O)O | CD4+ T lymphocytes | - | - | >250 µg/mL
COc1cc2ccccc2cc1C(=O)N[C@H]1N=C(c2ccccc2)c2ccccc2NC1=O | HEP-2 | - | - | 1.5 µM
C/C(=N\NC(=O)c1ccncc1)c1ccc(F)cc1 | VERO | - | - | >62.5 µg/mL
Nc1cc(Cl)nc2c1ncn2[C@@H]1O[C@H](CO)C[C@H]1O | MDBK | - | - | 140 µM
C/C(=C\C=C\C(C)[C@H]1CC[C@@]2(C)[C@@H]3CC[C@H]4C(C)(C)C(=O)CC[C@]4(C)C3=CC[C@]12C)C(=O)O | HT-29 | sulforhodamine / absorbance | - | >50 µM
COC(=O)c1cc2cc3cc4cc(CC(=O)O)c(/C(O)=C/C(=O)c5ccccc5O)c(OC)c4c(OC)c3c(O)c2c(=O)o1 | HeLa | - | - | 100–200 µg/mL
CCC[CH2][Sn]([Cl])([CH2]CCC)[S]C(=S)NCCNC(=S)[S][Sn]([Cl])([CH2]CCC)[CH2]CCC | VERO | - | - | 0.14 µg/mL
O=c1cc(-c2ccc(Oc3c(O)cc4oc(-c5ccc(O)cc5)cc(=O)c4c3O)cc2)oc2cc(O)cc(O)c12 | BSC-1 | neutral red | - | <11 µg/mL
CC1(C)Nc2cccc3c(N=Nc4ccc(N=Nc5ccccc5)c5ccccc45)ccc(c23)N1 | VERO | - | - | 10.4 µg/mL
COc1ccc(C(=O)NC2N=C(c3ccccc3)c3cc(Cl)ccc3NC2=O)cc1 | VERO | - | - | 1.2 µM
Cc1cccc(Nc2c[nH]c(=O)[nH]c2=O)c1 | Vero cells | MTT | - | >50 µg/mL
C[C@H]1O[C@@H](n2ccc(NC(=O)c3ccc(NC(=O)[C@@](C)(N)CO)cc3)nc2=O)C[C@@H](O)[C@@H]1O[C@H]1O[C@H](C)[C@@H](N(C)C)[C@H](O)[C@H]1O | HeLa | - | - | 500 µg/mL
Nc1nc(Cl)cc2c1ncn2[C@@H]1O[C@H](CO)C[C@H]1O | Sheep chondrocytes G81092 | MTT | - | >400 µM
O=c1c2cc(O)ccc2oc2cc(O)cc(O)c12 | ASK (Atlantic salmon kidney) | sulforhodamine / absorbance | - | >50 µM
COC(=O)[C@@H]1[C@H](c2cc(OC)c3nccnc3c2)c2cc3c(cc2C2=NOC[C@@H]21)OCO3 | MEL-28 | - | - | 2.8 µM
Nc1ncnc2c1ncn2[C@H]1CC[C@@H](CO)O1 | Sheep chondrocytes G81092 | MTT | - | >400 µM
Nc1cc2nc3ccccc3nc2cc1N | VERO | - | - | 4.64 µg/mL
COC1=CC([C@@H]2c3cc4c(cc3[C@H](O)[C@@H]3COC(=O)[C@H]32)OCO4)=CC(=O)C1=O | P-388 | - | - | 1.3 µM
O=C(Nc1cccs1)NC1N=C(c2ccccc2)c2ccccc2NC1=O | HEP-2 | - | - | 3.4 µM
OC[C@@H]1CC[C@H](n2cnc3c(NC4CC4)nc(Cl)nc32)O1 | Sheep chondrocytes G81092 | - | - | 180 µM
Cn1cc(NC(=O)c2cc(NC(=O)CN=C(N)N)cn2C)cc1C(=O)NCCC(=N)N | VERO | - | - | >10 µg/mL
Nc1ncnc2c1ncn2C[C@@H](CO)OCP(=O)(O)O | CBMC | MTT | - | 21 µM
C[C@H]1[C@H](O)C(=O)CC2[C@]3(C)CC[C@@]4(C)C5CC(C)(C)CC[C@]5(C)CC[C@]4(C)C3CC[C@@]21C | ASK (Atlantic salmon kidney) | sulforhodamine / absorbance | - | >50 µM
CC(C)[C@H]1C(=O)OC[C@@H](NC(=O)c2cnc3ccccc3n2)C(=O)N[C@@H](C)C(=O)N(C)[C@@H]2CSSC[C@H](C(=O)N1C)N(C)C(=O)[C@H](C)NC(=O)[C@H](NC(=O)c1cnc3ccccc3n1)COC(=O)[C@H](C(C)C)N(C)C2=O | VERO | - | - | 0.4 µg/mL
COc1cc([C@@H]2c3cc4c(cc3[C@H](OC(C)=O)[C@@H]3COC(=O)[C@H]23)OCO4)cc2c1OCO2 | HT-29 | - | - | 2.27 µM
C[C@@H](COc1cc(N)nc(N)n1)OCP(=O)(O)O | HeLa S3 | - | - | <10 µM
CC1CCN(C(=S)S)CC1.CC1CCNCC1 | VERO | - | - | <0.41 µg/mL

Again, the opening 10 rows:

compound | cells | read by | conditions | result
O=c1ccc2nc3ccccc3sc-2c1 | VERO | - | - | 8.18 µg/mL
COc1cc([C@@H]2c3cc4c(cc3[C@H](OC(C)=O)[C@@H]3COC(=O)[C@H]23)OCO4)cc(OC)c1O | HT-29 | - | - | 0.23 µM
Nc1nc2c(ncn2CCC(CO)CO)c(=O)[nH]1 | CD4+ T lymphocytes | - | - | >250 µg/mL
Nc1ncnc2c1ncn2C[C@H]1COP(=O)(O)CO1 | HSB-2 | MTT | - | 242 µM
Nc1ncnc2c1ncn2[C@@H]1O[C@H](CO)C[C@@H]1O | TR-14 | - | - | >50 µg/mL
Cn1cc(NC(=O)c2cc(NC(=O)CCCCCC(=O)Nc3cc(C(=O)Nc4cc(C(=O)NCCC(N)=[NH2+])n(C)c4)n(C)c3)cn2C)cc1C(=O)NCCC(N)=[NH2+] | VERO | - | - | 500 µg/mL
CC1C(=O)N(O)c2ncc(Br)cc2C1O | HepDES19 | MTS | 3 d | 69.3 µM
COc1cc([C@@H]2c3cc4c(cc3[C@H](OC(C)=O)[C@@H]3COC(=O)[C@@H]23)OCO4)cc2nccnc12 | MEL-28 | - | - | 0.56 µM
Nc1nc(N)c2ncn(CCOCP(=O)(O)O)c2n1 | CBMC | MTT | - | 34 µM
O=C1c2c(O)cc(O)cc2O[C@H](c2ccc(O)cc2)[C@H]1c1c(O)cc(O)c2c(=O)cc(-c3ccc(O)c(O)c3)oc12 | P-388 | sulforhodamine / absorbance | - | 31.87 µM

Lines come from different laboratories, so protocols vary. a–b is a range or a potency band. Blank or dashed fields: not listed here.